Values quoted from earlier work as cited in publication PMC9986244, “Connection between MHC class II binding and aggregation propensity: The antigenic peptide 10 of Paracoccidioides brasiliensis as a benchmark study” (Computational and Structural Biotechnology Journal, 2023).

Molecular target: DRB1*01:01 allele (Homo sapiens, UniProt P01903+P01911, A100R/D57E/F55L/F60I/F76Y/I96L/L162R/M171V/P40L/Q125E/R42F/V115G/Y59C)
Conditions: cited from earlier work

For PKYVKQNTLKLAT [Influenza peptide], the “Binding against the DRB1*01:01 allele” value is listed as “good binder”.
